Results of unrelated studies side by side (data: NIAID ChemDB).

Common to all: growth or infection tests; species: Rhinovirus; endpoint: EC50

Rows are shuffled and stem from different studies. An empty or dashed field is not shown. ECn is the concentration giving n% inhibition of infection, replication or growth.

SMILES | strain | cell line | method | result
CSc1nsc(-c2ccccc2)c1C#N | Serotype 14 (group A) | HELA-OHIO | cytopathic effect | >80 µM
Cc1ccc(Cn2cnc3c(N(C)C)nc(C(F)(F)F)nc32)cc1 | TYPE 31 | M-HELA | plaque count | 1.2 µM
CCOC(=O)c1ccc(OCCC2CCN(c3ccc(C)nn3)CC2)cc1 | Serotype 64 | WI-38 | cytopathic effect | <0.1 µg/mL
CS(=O)(=O)c1ccc(Cc2ccc(Cl)c(Cl)c2)nc1 | TYPE 1B | HeLa | cytopathic effect | <0.3 µg/mL
OCCCNc1nnc2c3ccccc3n(CCc3ccccc3)c2n1 | 1059 | WI-38 | plaque count | 4 µg/mL
Cc1ccc(Cn2cnc3c(N(C)C)nc(C(F)(F)F)nc32)cc1 | TYPE 1B | M-HELA | plaque count | 0.03 µM
CCOC(=O)c1ccc(OCCCOc2ccc(-c3snc(SC)c3C#N)cc2)cc1 | Serotype 29 (group B) | HELA-OHIO | cytopathic effect | >2 µM
C=CCc1nc(C)n2c(=O)[nH]c(=S)[nH]c12 | TYPE 1A | WI-38 | cytopathic effect | >100 µg/mL
CCCO/N=C/c1ccc(OCCCc2cc(C)no2)cc1 | TYPE 2 | MRC-5 | cytopathic effect / visual reading | 0.6 µg/mL
O=c1c(O)c(-c2ccc(C3=NCCO3)cc2)oc2ccccc12 | TYPE 1B | OHIO HELA | plaque count | 9.37 µM
COCCCNc1nnc2c3ccccc3n(C)c2n1 | HGP | WI-38 | plaque count | 220 µg/mL
CS(=O)(=O)c1ccc(NCc2ccc(Cl)c(Cl)c2)nc1 | TYPE 33 | HeLa | cytopathic effect | 0.6 µg/mL
CCOC(=O)c1ccc(OCCC2CCN(c3ccc(C)nn3)CC2)cc1 | Serotype 14 (group A) | HELA-OHIO | cytopathic effect | 0.04 µM
CCCn1c2ccccc2c2nnc(SC)nc21 | 33342 | WI-38 | plaque count | 4 µg/mL
CCS(=O)(=O)c1ccc(Cc2ccc(Cl)c(Cl)c2)nc1C(N)=O | TYPE 1A | HeLa | cytopathic effect | 1.3 µg/mL
CN(C)c1nc(C(F)(F)F)nc2c1ncn2Cc1ccc(S(C)(=O)=O)cc1 | Serotype 8 | M-HELA | plaque count | >8 µM
O=C(O)c1ccc(/C=C/C(=O)c2cc(Cl)ccc2O)cc1 | TYPE 1B | OHIO HELA | plaque count | >25 µM
CO/N=C/c1cccc(OCCC2CCN(c3ccc(Cl)nn3)CC2)c1 | TYPE 1A | KB | cytopathic effect / visual reading | <0.0032 µg/mL
CN(C)c1ncnc2c1ncn2Cc1cccc(C#N)c1 | Serotype 1B | M-HELA | plaque count | >50 µM
CCCCc1nc2ccc(OCCC3CCN(c4ccc(C)nn4)CC3)cc2o1 | Serotype 2 | MRC-5 | cytopathic effect | 0.13 µg/mL
C=CCc1nc(C)n2c(=O)[nH]cnc12 | TYPE 1A | WI-38 | cytopathic effect | ≥200 µg/mL
CS(=O)(=O)c1ccc(NCc2ccc(Br)cc2)nc1 | TYPE 1A | HeLa | cytopathic effect | >10 µg/mL
CO/N=C/c1ccc(OCCC2CCN(c3ccc(Cl)nn3)CC2)cc1 | TYPE 1A | KB | cytopathic effect / visual reading | <0.0032 µg/mL
Nc1nnc2c(n1)[nH]c1ccc(CO)cc12 | 1059 | WI-38 | plaque count | 100 µg/mL
CCOc1cnc2cc(OCCC3CCN(c4ccc(C)nn4)CC3)ccc2n1 | Serotype 14 | MRC-5 | cytopathic effect | 0.012 µg/mL
Cn1c2ccccc2c2nnc(NCCC(C)(C)O)nc21 | 33342 | WI-38 | plaque count | 20 µg/mL
CSc1nsc(-c2ccc(OC(C)(C)C)cc2)c1C#N | Serotype 2 (group B) | HELA-OHIO | cytopathic effect | 5 µM
COc1nc2ccc(OCCC3CCN(c4ccc(C)nn4)CC3)cc2o1 | Serotype 14 | MRC-5 | cytopathic effect | 0.02 µg/mL
CSc1ccc(Cc2ccc(S(C)(=O)=O)cn2)cc1 | TYPE 64 | HeLa | cytopathic effect | 1.3 µg/mL
CN(C)c1nc(C(F)(F)F)nc2c1ncn2Cc1ccc(Cl)c(Cl)c1 | Serotype 5 | M-HELA | plaque count | >8 µM
C=CCc1ncn2c(=O)[nH]c(NC(C)=O)nc12 | TYPE 9 | WI-38 | cytopathic effect | >200 µg/mL
CC(C)c1ccc(Cn2cnc3c(N(C)C)nc(Cl)nc32)cc1 | Serotype 1B | M-HELA | plaque count | 0.07 µM
CSc1nsc(-c2ccc(OCCCCOc3ccc([N+](=O)[O-])cc3)cc2)c1C#N | Serotype 72 (group A) | HELA-OHIO | cytopathic effect | >0.5 µM
CCOc1noc2cc(OCCCCCc3cc(C)no3)ccc12 | Serotype 2 | MRC-5 | cytopathic effect | 0.035 µg/mL
CCO/N=C/c1ccc(OCCC2CCN(c3ccc(Cl)nn3)CC2)cc1 | FO 1-3772 (ICAM-1 receptor group 52) | KB | neutral red | 0.052 µM
O=c1cc(-c2ccc(C3=NCCO3)cc2)oc2ccccc12 | TYPE 1B | OHIO HELA | plaque count | >25 µM
CCn1c2c(c(=O)c3cc(C(C)C)ccc31)Cc1ccccc1-2 | TYPE 2 | HELA-OHIO | cytopathic effect | 0.54 µg/mL
CCc1ccc(Cn2cnc3c(N(C)C)nc(Cl)nc32)cc1 | Serotype 8 | M-HELA | plaque count | >4 µM
CSc1nsc(-c2ccc(OCCOc3ccc([N+](=O)[O-])cc3)cc2)c1C#N | Serotype 70 (group A) | HELA-OHIO | cytopathic effect | >2 µM
Cc1cc(CCCCCOc2c(Cl)cc(C3=NCCO3)cc2Cl)on1 | TYPE 7 | HeLa | plaque count | 0.017 µg/mL
CSc1nsc(-c2ccc(OCCOc3ccccc3)cc2)c1C#N | Serotype 9 (group B) | HELA-OHIO | cytopathic effect | >20 µM
CCOc1nc2ccc(OCCC3CCN(c4nnnn4C)CC3)cc2o1 | Serotype 14 | MRC-5 | cytopathic effect | 0.25 µg/mL
COc1ccc(Cn2cnc3c(N(C)C)nc(C(F)(F)F)nc32)cc1C | Serotype 29 | M-HELA | plaque count | >8 µM
CCOC(=O)c1ccc(OCCOc2ccc(-c3snc(SC)c3C#N)cc2)cc1 | Serotype 29 (group B) | HELA-OHIO | cytopathic effect | >2 µM
COc1ccc(-n2c(-c3ccccc3)c(C)c(=O)c3cc(C(C)C)ccc32)cc1 | TYPE 1B/B632 | HELA-OHIO | cytopathic effect | >2.5 µg/mL
Fc1cccc(Cn2cnc3c(Nc4cccc(F)c4)nc(C(F)(F)F)nc32)c1 | Serotype 34 | M-HELA | plaque count | 3 µM
CCOc1nc2ccc(OCCCC3CCN(c4ccc(Cl)nn4)CC3)cc2o1 | Serotype 2 | MRC-5 | cytopathic effect | 0.004 µg/mL
CSc1nsc(-c2ccc(OCCOc3ccc(C#N)cc3)cc2)c1C#N | Serotype 89 (group B) | HELA-OHIO | cytopathic effect | >2 µM
Cc1c(-c2ccccc2)n(-c2ccc(F)cc2)c2ccc(C(C)C)cc2c1=O | 21/47 | HELA-OHIO | cytopathic effect | 0.067 µg/mL
COc1c(-c2ccc(C3=NCCO3)cc2)oc2ccccc2c1=O | TYPE 1B | OHIO HELA | plaque count | 14.05 µM
Cn1c2ccccc2c2nnc(NCC(C)(CO)c3ccccc3)nc21 | 1059 | WI-38 | plaque count | 45 µg/mL
CC(C)Oc1ccc(Cn2cnc3c(N(C)C)nc(C(F)(F)F)nc32)cc1 | Serotype 21 | M-HELA | plaque count | >8 µM
CC(=O)Nc1ccc(Cc2ccc(S(C)(=O)=O)cn2)cc1 | TYPE 1A | HeLa | cytopathic effect | >10 µg/mL
CN(C)c1nc(Cl)nc2c1ncn2Cc1ccc(Cl)cc1 | Serotype 15 | M-HELA | plaque count | >5 µM
CCOC(=O)/C=C/[C@H](C[C@@H]1CCNC1=O)NC(=O)[C@@H](CC(=O)[C@@H](NC(=O)c1cc(C)on1)C(C)C)Cc1ccc(F)cc1 | Isolate 15 | OHIO HELA-I | cytopathic effect / visual reading | 0.01 µg/mL
Cc1cc(Cn2cnc3c(N(C)C)nc(C(F)(F)F)nc32)ccc1Cl | Serotype 1B | M-HELA | plaque count | 0.12 µM
Cc1cc(CCCOc2c(C)cc(-c3coc(C)n3)cc2C)on1 | Serotype 1 |  | plaque count | 0.347 µg/mL
Cc1ccc(N2CCC(CCOc3ccc4nc(C)oc4c3)CC2)nn1 | Serotype 14 | MRC-5 | cytopathic effect | >0.5 µg/mL
CN(C)c1ncnc2c1ncn2Cc1ccc(N)cc1 | Serotype 1B | M-HELA | plaque count | >50 µM
CSc1nsc(-c2ccc(O)cc2)c1C#N | Serotype 41 (group B) | HELA-OHIO | cytopathic effect | >10 µM
OCCCNc1nnc2c3ccccc3n(Cc3ccccc3)c2n1 | 33342 | WI-38 | plaque count | 30 µg/mL
CSc1nc2ccc(OCCC3CCN(c4ccc(Cl)nn4)CC3)cc2o1 | Serotype 2 | MRC-5 | cytopathic effect | 0.067 µg/mL
CCc1nc(-c2cc(C)c(OCCCc3cc(COC)no3)c(C)c2)no1 | Serotype 14 | HeLa | cytopathic effect | 0.045 µg/mL
CC(=O)Nc1nc2c(CC(O)CO)ncn2c(=O)[nH]1 | TYPE 9 | WI-38 | cytopathic effect | >400 µg/mL
Cc1cc(CCCOc2c(Cl)cc(C3=NCCO3)cc2Cl)on1 | Serotype 16 |  | plaque count | 0.15 µg/mL
CO/N=C(\C)c1ccc(OCCC2CCN(c3ccc(Cl)nn3)CC2)c(OC)c1 | TYPE 1A | KB | cytopathic effect / visual reading | <0.0032 µg/mL
Cc1nc(-c2cc(C)c(OCCCc3cc(C(F)(F)F)no3)c(C)c2)no1 | Serotype 50 | HeLa | cytopathic effect | 0.19 µg/mL
Cc1c(-c2ccccc2)n(-c2cccc(F)c2)c2ccc(C(C)C)cc2c1=O | 10/204-CV14 | HELA-OHIO | cytopathic effect | 0.013 µg/mL
COC(=O)c1cc(CCCOc2c(C)cc(-c3noc(C)n3)cc2C)on1 | Serotype 41 | HeLa | cytopathic effect | 0.145 µg/mL
Cc1ccc(Cn2cnc3c(N(C)C)nc(C(F)(F)F)nc32)cc1C | Serotype 5 | M-HELA | plaque count | >8 µM